The nature of this data set: Chlorine blow off after TCM washdown / direct application.

As to trichloromelamine [TCM], the chlorine blowoff entry is listed as “No chlorine blow off was detected” (Example 5: 200 ppm TCM washdown) and “No chlorine blowoff was detected” (Example 6: initial washdown or subsequent direct applications).

The record behind these values is patent US6749804B2, “Process for treating animal habitats” (H & S Chemical Company, Inc., priority 2000, dated 2004).
